The supplement of paper PMC12637763
Where a chain is given by its changes, count along the chain named. The list shows a part of the results. Env chains of viruses from a treatment-interruption trial, translated from the printed DNA. IC50 / IC80 of two broadly neutralizing antibodies; lower = more sensitive virus; >50 µg/ml means not reached and <0.001 µg/ml is below the lowest dose. No active / inactive call.

B1: HIV-1 Env, reservoir clone (protein)
chain: MKAKETRKNYQHLWRWGIMLLGMLMICSAASQLWVTVYYGVPVWKEATTTLFCASDAKAYDTEVHNVWATHACVPTDPNPQEVVLGNVTEDFNMWKNNMVEQMHEDIISLWDQSLKPCVKITPLCVTLNCTEYSNATSTTWGQMEKGEIKNCSFNVTTNIKNKMQKEYALFYKLDVVQIGDNSTNYRLIKCNTSAITQACPKVSFQPIPIHYCAPAGFAILKCNNKTFNGLGPCTNVSTVQCTHGIRPVVSTQLLLNGSLAEEEIVIRSENFSDNAKNIIVHLNASIEINCTRPNNNTRKSITIGPGRAFYATGDVIGDIRQAHCNISGEKWNEALKQIAIKLREQFGHDKTIVFNQSSGGDPEIVAHSVNCGGEFFYCNSTKLFNSTWHSNGTQNNTTESNETITLPCKIKQIINLWQEVGKAIYAPPISGPIRCSSNITGLLLTRDGGHTSETNKETFRPGGGDMRDNWRSELYKYKVVKIEPLGVAPTKAKRRVVQRERRAVGTFGALFLGFLGTAGSTMGAASITLTVQARQLLSGIVQQQNNLLKAIEAQQHLLQLTVWGIKQLQARVLAVERYLKDQQLLGLWGCSGKLICTTTVPWNASWSNKSLEQIWENMTWMQWEKEIDNYTGIIYSLISESQLQQEKNEKELLELDKWASLWTWFDITNWLWYIKIFIMIVGGLIGLRIVFAVLSIVNKVRKGYSPLSFQTRLPTPRGPDRPEGIEEEGGERGRDTSIRLVDGFLALIWDDLRNLCLFSYHHLRDLILIVVRTVELLGRRGWELLKYWWNLLKYWSQELKKSAVSLFNAAAIAVAEGTDRVIEVVQRAGRGILHVPRRIRQGLERALQ
B2: HIV-1 Env, reservoir clone (protein)
chain: MKVKVTMRNYQNLWRGGTLLLGMLMICSGAEQLWVTVYYGVPVWKEANTTLFCASDAKAYDTEVHNVWATHACVPTDPSPQEVVLENVTEDFNIWKNNMVEQMHEDIISLWDQSLKPCVKLTPLCVTLNCSNVNNQTGTNNNSSHGKDVEGEMKNCSFNVTTNIRDKIKREYALLYKLDIVPIDNDNTSYTLTSCNTSVITQACPKVSFEPIPIHYCAPAGFAILKCNNKTFNGKGPCTNVSTVQCTHGIRPVVSTQLLLNGSLAEDVVLRSENFTNNAKTIIVQLKEPVIINCTRPNNNTRKSIPMGPGRAWYTTGEIIGDIRQAHCNISKAQWNKTLQQVVTKLREQFGNKTIVFNQPTGGDPEIVMHSFNCGGEFFYCNTSKLFNSTWNNSTQGINSTGESNTTITIQCKIKQIINMWQQVGKAMYAPPIAGQIKCSSNITGLLLTRDGGGNKTENETFRPAGGDMRDNWRSELYKYKVVQIKPLGIAPTKAKRRVVQREKRAVGIGALFLGFLGAAGSTMGAAAVTLTVQARQLLSGIVQQQNNLLRAIEAQQHMLQLTVWGIKQLQARVLAVERYLRDQQLLGIWGCSGKLICTTTVPWNNSWSNKSLDDIWGNMTWMEWEKEIDNYTYTIYKLIEESQNQQEKNEQELLELDKWANLWNWFDITNWLWYIKIFIIIVGGLIGLRIVFAVLSIVNRVRQGYSPLSLQTLLPAPRGPDRPGEIEEEGGERDKDTSVRLVNGFLAIIWDDLRSLCLFSYRHLRDLLLIVTRIVGLLGHRGWEVLRYWWNLLQYWIQELKNSAVSLLNVTAIAVAEGTDRVIEIAQRACRAVLHIPRRIRQGLERGLL
B3: HIV-1 Env, reservoir clone (protein)
chain: B1 chain with M25I, Y579C

Tests used:
[1] = molecular target: antibody 10-1074; assay: neutralization IC50; higher = virus less sensitive to the antibody
Procedure: (§1)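 Pseudovirus bearing the Env chain mixed with antibody, from 50 µg/ml in fivefold dilutions, on TZM-bl reporter cells, in duplicate.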

[2] = molecular target: antibody 3BNC117; assay: as above
Procedure: as §1

[3] = molecular target: antibody 10-1074; assay: neutralization IC80; higher = virus less sensitive to the antibody
Procedure: as §1

[4] = molecular target: antibody 3BNC117; assay: as above
Procedure: as §1

Binder | neutralization IC50 [1] [ng/mL] | neutralization IC50 [2] [µg/mL] | neutralization IC80 [3] [ng/mL] | neutralization IC80 [4] [µg/mL]
B1 | < 1 | 0.05 | 5 | > 50
B2 | 4 | 0.075 | 11 | 0.248
B3 | < 1 | 0.091 | 3 | > 50
